Compound potency records, mixed from different reports. Data source: NIAID ChemDB in PubChem.

Common to all: host cell toxicity; cells: A549; read-out: CC50

Blank or dashed fields: not listed here.

| SMILES | read by | value |
|---|---|---|
| CCCC(=O)Nc1nc(=O)n([C@@H]2C[C@H](CO)[C@@H](O)C2)cc1COC |  | >2933 µM |
| Cc1ccc(-c2nc3ccccc3n2C(=O)/C=C/c2ccccc2)cc1 | MTT / absorbance | <10 µg/mL |
| COc1cc(O)c2c(c1O)C(=O)c1cc(C)ncc1C2=O | MTT | 86.2 µg/mL |
| Fc1ccc(-c2n[nH]c(=S)s2)cc1 | MTT | >100 µg/mL |
| NC(=Nc1ccccc1)c1ccc(N2CCN(c3ccc(C(N)=Nc4ccccc4)cc3)CC2)cc1 |  | >11.6 µg/mL |
| N#Cc1ccc(Nc2cc(Oc3ccc(C#N)cc3)c3ccccc3n2)cc1 | MTT | ≥50 µg/mL |
| COCCN1CCN(C(=O)c2nc3cc(C(F)(F)F)c(C)c([N+](=O)[O-])c3s2)CC1 | resazurin / fluorescence | >100 µM |
| CC(C)c1ccc2[nH]c3cc(C#N)c(=O)oc3c2c1 | visual reading / absorbance | 32 µg/mL |
| C=CCSc1n[nH]c(-c2ccc(C(F)(F)F)cc2)n1 |  | >100 µg/mL |
| CCN=C(N)c1ccc(N2CCN(c3ccc(C(N)=NCC)cc3)CC2)cc1 |  | >53.7 µg/mL |
| Cc1nc2ccccc2n1C(=O)/C=C/c1ccccc1 | MTT / absorbance | >30 µg/mL |
| Oc1ccc(-c2nc(SCC3CC3)n[nH]2)cc1 | MTT | >100 µg/mL |
| N=C(N)c1ccc(OCCCCCOc2ccc(C(=N)N)cc2)cc1 |  | 18.2 µg/mL |
| C#CCS(=O)(=O)c1nc(-c2ccc([N+](=O)[O-])c(C(F)(F)F)c2)n[nH]1 | MTT | >100 µg/mL |
| Cc1cc(C=O)cc(C)c1Oc1cc(Nc2ccc(C#N)cc2)c2ccccc2n1 | MTT | ≥50 µg/mL |
| C[C@H]1COC2(CCN(c3nc(=O)c4cc(C(F)(F)F)cc([N+](=O)[O-])c4s3)CC2)O1 | resazurin / fluorescence | 46 µM |
| N#Cc1cc2[nH]c3ccc([N+](=O)[O-])cc3c2oc1=O | visual reading / absorbance | >100 µg/mL |
| C=C(C)[C@@H]1CCC2(C(=O)NCCC(=O)OCC)CC[C@]3(C)C(CCC4[C@@](C)(CC#N)C(C(C)(C)C(=O)NCCC(=O)OCC)CC[C@]43C)C12 | MTT | >100 µM |
| C#CCSc1n[nH]c(-c2ccc(C(F)(F)F)cc2)n1 |  | >100 µg/mL |
| Cc1c(C(F)(F)F)cc2nc(C3=NCCO3)sc2c1[N+](=O)[O-] | resazurin / fluorescence | >100 µM |
| NNC(=O)c1ccncc1 | MTT | >100 µg/mL |
| COC1=CC(=O)c2c(O)c(C)c3c(c2C1=O)OC(C)C3 | MTT | 98.5 µg/mL |
| C#CCSc1n[nH]c(-c2ccc([N+](=O)[O-])c(C(F)(F)F)c2)n1 | MTT | >100 µg/mL |
| CC(C)CCN=C(N)c1ccc(N2CCN(c3ccc(C(N)=NCCC(C)C)cc3)CC2)cc1 |  | >0.9 µg/mL |
| N=C(N)c1ccc(NC(=O)CCCCC(=O)Nc2ccc(C(=N)N)cc2)cc1 |  | 500 µg/mL |
| C=CCSc1n[nH]c(-c2ccc([N+](=O)[O-])c(C(F)(F)F)c2)n1 | MTT | >100 µg/mL |
| NC(=NC1CCCCCC1)c1ccc(N2CCN(c3ccc(C(N)=NC4CCCCCC4)cc3)CC2)cc1 |  | >0.69 µg/mL |
| CCSc1n[nH]c(-c2cccc([N+](=O)[O-])c2C)n1 |  | >100 µg/mL |
| N#Cc1cc2[nH]c3ccc(O)cc3c2oc1=O | visual reading / absorbance | 32 µg/mL |
| CCSc1n[nH]c(-c2cccc(C(F)(F)F)c2)n1 |  | 52.72 µg/mL |
| CCO[C@H]1c2cc(O)c(OC)c(OC)c2-c2c(cc(O)c(OC)c2OC)C[C@H](C)[C@@H]1C | MTT | >10 µg/mL |
| CCSc1n[nH]c(-c2ccc([N+](=O)[O-])c(C)c2)n1 |  | >100 µg/mL |
| CC(C)CS[C@H]1C[C@@H](n2cnc3c(N)ncnc32)[C@H](O)[C@@H]1O |  | >200 µg/mL |
| CN1C=CN(c2cccc(N3C=CN(C)C3)n2)C1.[Cl][Au].[Cl][Au] | sulforhodamine / absorbance | >30 µM |
| CCCCSc1n[nH]c(-c2ccc([N+](=O)[O-])c(C)c2)n1 |  | 81.35 µg/mL |
| COc1cc2c(c(OC)c1O)-c1c(cc3c(c1OC)OCO3)C[C@H](C)[C@H](C)[C@@H]2O | MTT | 1.3 µg/mL |
| Fc1ccc(-c2nc(=S)[nH][nH]2)cc1 | MTT | >100 µg/mL |

Neighbouring rows are from separate reports. CCn: concentration that lowers growth or viability of the cells by n%.